The record followed here is patent US20090060984A1, “ANIONIC SURFACTANTS LETHAL TO GRAM-POSITIVE BACTERIA” (priority 2007, published 2009).

This experiment relates to Gram-negative bacteria. Description: Growth on surfactant/TSA agar plates. The format is cell-based. Particulars: agar plates containing sodium bis[2-ethylhexyl]sulfosuccinate. Here is the method:
This solution was then aliquoted into sterile petri dishes, approximately 25 mL per plate, and allowed to solidify. The organisms were grown in 5 mL of Trypticase Soy Broth. The sterile broth was inoculated with a single isolated colony from a stock culture and allowed to incubate in a shaking water bath at 37° C. for 8-10 hours. The estimated concentration was about 10^9 CFU/mL. Some plates were tested with a 1:100 dilution of these cultures to arrive at an approximate concentration of 10^7 CFU/mL. Then, 10 μL of each overnight culture was pipetted directly onto the surface of the surfactant/TSA plates, which were then allowed to incubate at 37° C. for 24 hours. Results were based on the presence or absence of bacterial growth on the surface of the agar.

For `CCCCC(CC)COC(=O)CC(C(=O)OCC(CC)CCCC)S(=O)(=O)[O-].[Na+]` (stereo not shown) [NaAOT, Sodium bis(2-ethylhexyl)sulfosuccinate], the “Effect on Gram-negative bacteria tested” value is reported as “resistant”.
